A mixed list of measured activities; the numbers were collected in NIAID ChemDB.

Shared fields: whole-cell or culture tests; organism: HIV-1; cell line: MT-4; endpoint: fold resistance

Fold resistance: result on the changed form divided by that on wild type. An empty or dashed field is not shown. Lines come from different laboratories, so protocols vary.

| compound | strain or isolate | changes | method | result |
|---|---|---|---|---|
| Cc1ccc(C2CC2)c(-c2cc(F)c3c(c2C)CCCO3)c1[C@H](OC1CC1)C(=O)O | NL4-3 | INSTI-resistant (IN-N155H) | luminescence | 1 |
| CCc1c(C)[nH]c(=O)c(CC)c1Oc1cc(C)cc(C)c1 | - | RT-K103N | cytopathic effect / MTT | 13 |
| COCCNC(=O)CSc1cnc(Nc2ccc(C#N)cc2)nc1Oc1c(C)cc(C#N)cc1C | - | Y181C | MTT | 5.1 |
| CCc1c(C)[nH]c(=O)c(Sc2ccccc2)c1Oc1cc(C)cc(C)c1 | - | RT-L100I | cytopathic effect / MTT | 13 |
| Cc1cc(C#N)cc(C)c1Oc1nc(Nc2ccc(C#N)cc2)ncc1SCC(=O)NC1CCN(C(=O)OC(C)(C)C)CC1 | - | K103N | MTT | 1.3 |
| CCc1c(C)[nH]c(=O)c(C2CC2)c1Oc1cc(C)cc(C)c1 | - | RT-Y188L | cytopathic effect / MTT | 25 |
| Cc1ccc(C2CC2)c(-c2ccc3c(c2C)CCCO3)c1[C@H](OC(C)(C)C)C(=O)O | NL4-3 | NRTI/NNRTI resistant NLAY351753 | luminescence | 1 |
| CC(C)[C@H](NC(=O)OCc1ccccn1)C(=O)N[C@@H](Cc1ccccc1)[C@@H](O)C[C@H](Cc1ccccc1)NC(=O)OCc1cccnc1 | NL4-3 | PR-M46I L63P V82T | p24 | 3.75 |
| C=CCNC(=O)CSc1cnc(Nc2ccc(C#N)cc2)nc1Oc1c(C)cc(C#N)cc1C | - | RES056 | MTT | 177.2 |
| N#Cc1cc(Cl)cc(Oc2c(Br)ccc(CC(=O)Nc3ccc(S(N)(=O)=O)cc3Cl)c2F)c1 | - | K103N/Y181C | - | 1 |
| CCc1c(C)[nH]c(=O)c(OC)c1Oc1cc(C)cc(C)c1 | - | RT-Y181C | cytopathic effect / MTT | 63 |
| Cn1c2ccccc2c2c1cc(C#N)c(=O)n2-c1ccc([N+](=O)[O-])cc1 | B | RT-K103N | cytopathic effect / MTT | 1 |
| C=Cc1c(Oc2cc(C)cc(C)c2)c(CC)c(C)[nH]c1=O | - | RT-Y181C | cytopathic effect / MTT | 6 |
| N#Cc1cc2[nH]c3ccccc3c2n(-c2ccc([N+](=O)[O-])cc2)c1=O | J | RT-I31L L100I K103N E138G Y181C L214F | cytopathic effect / MTT | 5 |
| Cc1cc(C#N)cc(C)c1Oc1nc(Nc2ccc(C#N)cc2)ncc1SCC(=O)NCC1CCCO1 | - | F227L V106A | MTT | 38.9 |

The last 2 rows once more:

compound,strain or isolate,changes,method,result
N#Cc1cc2[nH]c3ccccc3c2n(-c2ccc([N+](=O)[O-])cc2)c1=O,J,RT-I31L L100I K103N E138G Y181C L214F,cytopathic effect / MTT,5
Cc1cc(C#N)cc(C)c1Oc1nc(Nc2ccc(C#N)cc2)ncc1SCC(=O)NCC1CCCO1,-,F227L V106A,MTT,38.9